Compound potency records, mixed from different reports. Data source: NIAID ChemDB in PubChem.

All rows: growth or infection tests; organism: Hepatitis B virus; endpoint: EC50

Conditions beyond the fields shown may differ between rows. ECn: concentration that inhibits the pathogen or its effect by n%. a–b is a range or a potency band.

structure	cells	method	result
C[C@H]1Cc2c(n3ncc(Cc4ccccc4)c3n(-c3ccc(-n4nnnc4C(F)(F)F)cc3)c2=O)CN1C(=O)c1ccc(Br)c(C(F)(F)F)c1	HepG2.117	luminescence	>5 µM
CN(C)CCN(C1CC1)S(=O)(=O)CNc1ccc2c(C(=O)Nc3ccc(F)c(Cl)c3)n(C)nc2c1	HepAD38	PCR	100–1000 µM
C[C@@H]1CO[C@@]2(C[C@@H]1OC(=O)c1ccccc1)O[C@@H]1C[C@@H](C(=O)O[C@@H]3C[C@H](O)[C@@H](O)[C@H](O)[C@H]3OC3O[C@H](CO)[C@@H](O)[C@H](O)[C@H]3O)C[C@H](O)[C@]1(O)[C@H]2O	HepG2 2.2.15	ELISA / antigen	0.8 µM
Cn1nc2cc(NS(=O)(=O)c3ccccc3)ccc2c1C(=O)Nc1ccc(F)c(Cl)c1	HepAD38	PCR	<100 µM
COc1ccc(-n2c(C(=O)NCc3ccccc3)c3n(c2=O)CCN(C(=O)c2ccc(Cl)c(Cl)c2)C3)c(C)c1	HepG2.117	PCR	>5 µM
COCCCOc1cc2c(cc1Cl)-c1c(cc(C(=O)O)c(=O)n1C1CC1)C(C1(C)COC1)S2	Primary human hepatocytes	antigen / visual reading / absorbance	0.1–0.5 µM
C[C@@H]1Cc2c(n3ncc(Cc4ccccc4)c3n(-c3ccc(-n4nnnc4C(F)(F)F)cc3)c2=O)CN1C(=O)c1ccc(Br)c(C(F)(F)F)c1	HepG2.117	luminescence	≤0.05 µM
CC(C)Oc1ccc(-n2c(-c3ncc(-c4ccccc4)o3)c3n(c2=O)CCN(C(=O)c2ccc(Br)c(Cl)c2)C3)cc1	HepG2.117	PCR	>5 µM
CCc1cc2c(cc1OCCCOC)S(=O)(=O)C(C)c1cc(C(=O)O)c(=O)n(C3CC3)c1-2	Primary human hepatocytes	antigen / visual reading / absorbance	>0.1 µM
Cn1nc2cc(NS(=O)(=O)c3cnn(C4CCN(C(=O)OC(C)(C)C)C4)c3)ccc2c1C(=O)Nc1ccc(F)c(Cl)c1	HepAD38	PCR	100–1000 µM
COCCCOc1cc2c(cc1Cl)-c1c(cc(C(=O)O)c(=O)n1C1CCC1)CS2	Primary human hepatocytes	antigen / visual reading / absorbance	0.05–0.1 µM
COc1ccc(-n2c(C(=O)NCc3ccc(OC(F)(F)F)cc3)c3n(c2=O)CCN(C(=O)c2ccc(Br)c(Cl)c2)C3)cc1	HepG2.117	PCR	0.1–0.5 µM
Cc1cccc(COC(=O)Nc2ccc3nn(C)c(C(=O)Nc4ccc(F)c(Cl)c4)c3c2)c1	HepAD38	PCR	>1000 µM
COCCCOc1cc2c(cc1NC(=O)OC(C)(C)C)-c1c(cc(C(=O)O)c(=O)n1C1CC1)CS2(=O)=O	Primary human hepatocytes	antigen / visual reading / absorbance	>0.5 µM
CC(=O)N[C@H]1C(O[C@@H]2[C@@H](O)[C@H](O)[C@@H](O)C[C@H]2OC(=O)[C@H]2C[C@H](O)[C@@]3(O)[C@@H](C2)O[C@@]2(C[C@H](OC(=O)c4ccc(O)cc4)[C@H](C)CO2)[C@@H]3O)O[C@H](CO)[C@@H](O)[C@@H]1O	HepG2 2.2.15	ELISA / antigen	12.5 µM
CC(C)Cc1cnn2c3c(c(=O)n(-c4ccc5c(c4)nnn5CCO)c12)C[C@H](C)N(C(=O)c1ccc(Br)c(C(F)(F)F)c1)C3	HepG2.117	luminescence	0.05–0.5 µM
COc1cc2c(cc1Cl)-c1c(cc(C(=O)O)c(=O)n1C1CC1)CS2	Primary human hepatocytes	antigen / visual reading / absorbance	0.1–0.5 µM
CN(C)CCn1cc(S(=O)(=O)Nc2cc(F)c3c(C(=O)Nc4ccc(F)c(Cl)c4)n(C)nc3c2)cn1	HepAD38	PCR	100–1000 µM
CCC1c2cc(C(=O)O)c(=O)n(C3CCC3)c2-c2cc(Cl)c(OCCCOC)cc2S1(=O)=O	Primary human hepatocytes	antigen / visual reading / absorbance	>0.5 µM
Cc1c(S(=O)(=O)Nc2ccc3c(C(=O)Nc4ccc(F)c(Cl)c4)n(C)nc3c2)cnn1-c1ccccn1	HepAD38	PCR	100–1000 µM
COP(=O)(O)OCN(C)C(=O)c1ccc(-n2c(=O)c3c(n4ncc(CC5CC5)c24)CN(C(=O)c2ccc(Br)c(C(F)(F)F)c2)[C@@H](C)C3)cc1	HepG2.117	luminescence	>5 µM
C[C@@H]1CO[C@@]2(C[C@@H]1OC(=O)c1ccc(O)cc1)O[C@]1(O)C[C@@H](C(=O)O[C@@H]3C[C@H](O)[C@@H](O)[C@H](O)[C@H]3OC3O[C@H](CO)[C@@H](O)[C@H](O)[C@H]3O)C[C@H](O)[C@]1(O)[C@H]2O	HepG2 2.2.15	ELISA / antigen	15.1 µM
C[C@H](NC(=O)c1c2n(c(=O)n1-c1ccc(OC3CC3)cc1)C[C@H](C)N(C(=O)c1ccc(Br)c(Cl)c1)C2)c1ccccc1	HepG2.117	PCR	0.1–0.5 µM
CNC(=O)c1ccc(-n2c(=O)c3c(n4ncc(CC5CCC5)c24)CN(C(=O)c2ccc(Br)c(C(F)(F)F)c2)[C@H](C)C3)cc1	HepG2.117	luminescence	≤0.05 µM
Cn1nc2cc(NS(=O)(=O)NCC3CNC3)ccc2c1C(=O)Nc1ccc(F)c(Cl)c1	HepAD38	PCR	>1000 µM
C[C@@H]1CO[C@@]2(C[C@@H]1OC(=O)c1ccc(O)cc1)O[C@]1(O)C[C@@H](C(=O)O[C@@H]3C[C@H](O)[C@@H](O)[C@H](O)[C@H]3OC3O[C@H](CO)[C@@H](O)[C@H](O)[C@H]3OC3O[C@H](CO)[C@@H](O)[C@H](O)[C@H]3O)C[C@H](O)[C@]1(O)[C@H]2O	HepG2 2.2.15	ELISA / antigen	25.9 µM
COc1ccc(-n2c(C(=O)NCc3ccc(OCC(=O)O)cc3)c3n(c2=O)CCN(C(=O)c2ccc(Br)c(Cl)c2)C3)cc1	HepG2.117	PCR	>5 µM
COc1cc2c(cc1Cl)-c1c(cc(C(=O)O)c(=O)n1C1CC1)CS2(=O)=O	Primary human hepatocytes	antigen / visual reading / absorbance	>0.1 µM
CNc1n[nH]c2cc(-n3c(=O)c4c(n5ncc(CC(C)C)c35)CN(C(=O)c3ccc(Br)c(Cl)c3)[C@H](C)C4)ccc12	HepG2.117	luminescence	≤0.05 µM
CCc1cc2c(cc1OCCCOC)S(=O)(=O)Cc1cc(C(=O)O)c(=O)n(C3CC3)c1-2	Primary human hepatocytes	antigen / visual reading / absorbance	0.05–0.1 µM
COc1ccc(-n2c(C(=O)NCc3ccccc3F)c3n(c2=O)CCN(C(=O)c2ccc(Br)c(Cl)c2)C3)cc1	HepG2.117	PCR	0.1–0.5 µM
CC1Cc2c(n3ncc(CC4CC4)c3n(-c3ccc(C(=O)NCO)cc3)c2=O)CN1C(=O)c1ccc(Br)c(C(F)(F)F)c1	HepG2.117	luminescence	0.05–0.5 µM